Pooled drug test results. Numbers come from NIAID ChemDB, via PubChem.

Common to all: tests in culture; species: Staphylococcus aureus

An empty or dashed field is not shown.

SMILES | read-out | strain or isolate | result
CC[C@H]1OC(=O)C[C@@H](O)[C@H](C)[C@@H](O[C@@H]2O[C@H](C)[C@@H](O)[C@H](N(C)C)[C@H]2O)C(C=O)C[C@@H](C)C(=O)/C=C/C(C)=C/[C@@H]1COC | MIC | 25923 (erythromycin-susceptible) | 0.5 µg/mL
CCCCCCCCCCCC[N+](C)(C)COCC | MIC | ATCC33592 | 4.87 µM
CC(=O)NC[C@H]1CN(c2ccc(OC3CCN(C(=O)COCc4cccnc4)CC3)c(F)c2)C(=O)O1 | MIC | OC4172 methicillin-susceptible | 16 µg/mL
CCC1CN(c2cc3c(cc2F)c(=O)c(C(=O)O)cn3C2CC2)CCN1 | MIC |  | 0.22 µg/mL
CC(=O)NC[C@H]1CN(c2ccc(OC3CCN(C(=O)CO)CC3)c(F)c2)C(=O)O1 | MIC | OC2878 methicillin-resistant | 4 µg/mL
CC[C@H]1OC(=O)C[C@@H](O)[C@H](C)[C@@H](O[C@@H]2O[C@H](C)[C@@H](O)[C@H](N(C)C)[C@H]2O)C(C=O)C[C@@H](C)C(=O)/C=C/C(C)=C/[C@@H]1COC(=O)Nc1ccc(F)c(F)c1 | MIC | 25923 (erythromycin-susceptible) | 0.5 µg/mL
CNC(=O)CC1NC(=O)c2csc(n2)-c2ccc(-c3nc(COC(=O)N(C)CCCC(C)=O)cs3)nc2-c2csc(n2)-c2csc(n2)C(C(O)c2ccccc2)NC(=O)CNC(=O)c2nc(sc2CO)C(C(C)C)NC(=O)c2nc1sc2C | MIC | ATCC 33591 (methicillin-resistant) | 1 µg/mL
C=CCNC(=O)OC[C@H]1/C=C(C)/C=C/C(=O)[C@H](C)CC(C=O)[C@H](O[C@@H]2O[C@H](C)[C@@H](O)[C@H](N(C)C)[C@H]2O)[C@@H](C)[C@H](O)CC(=O)O[C@@H]1CC | MIC | 25923 (erythromycin-susceptible) | 0.5 µg/mL
Cc1c(NCCO)c(F)cc2c(=O)c(C(=O)O)cn(-c3cc(N)c(F)cc3F)c12 | Mean MIC | 27 isolates (methicillin-resistant) | 0.027 µg/mL
CCCCCCCCCCCC[N+](C)(C)CSCCCC | MBC | ATCC33592 | 14.2 µM
C[C@H]1COc2c(N3CCN(C)CC3)c(F)cc3c(=O)c(C(=O)O)cn1c23 | MIC90 | 46 isolates (methicillin-resistant) | 0.5 µg/mL
CC(C)(C)n1cc(C(=O)O)c(=O)c2cc(F)c(N3C[C@H]4C[C@@H]3CN4)nc21 | MIC90 | 44 strains (methicillin-resistant) | 0.5 µg/mL
C[C@H]1NCc2cc(-c3ccc4c(=O)c(C(=O)O)cn(C5CC5)c4c3OC(F)F)ccc21 | MIC | A29030 (methicillin-resistant) | 0.06 µg/mL
CC[C@H]1OC(=O)C[C@@H](O)[C@H](C)[C@@H](O[C@@H]2O[C@H](C)[C@@H](O)[C@H](N(C)C)[C@H]2O)C(C=O)C[C@@H](C)C(=O)/C=C/C(C)=C/[C@@H]1COCc1ccccc1 | MIC | 25923 (erythromycin-susceptible) | 0.13 µg/mL
CC(=O)NC[C@H]1CN(c2ccc3c(c2)OCc2nccn2-3)C(=O)O1 | MIC | 48N | 0.5 µg/mL
CNC(=O)CC1NC(=O)c2csc(n2)-c2ccc(-c3nc(COC(=O)NCCCC(C)=O)cs3)nc2-c2csc(n2)-c2csc(n2)C(C(O)c2ccccc2)NC(=O)CNC(=O)c2nc(sc2CSC)C(C(C)C)NC(=O)c2nc1sc2C | MIC | ATCC 33591 (methicillin-resistant) | 0.25 µg/mL
COCC(=O)N1CCC(Oc2ccc(N3C[C@H](CNC(C)=O)OC3=O)cn2)CC1 | MIC | OC2878 methicillin-resistant | >64 µg/mL
CC[C@H]1OC(=O)C[C@@H](O)[C@H](C)[C@@H](O[C@@H]2O[C@H](C)[C@@H](O)[C@H](N(C)C)[C@H]2O)C(C=O)C[C@@H](C)C(=O)/C=C/C(C)=C/[C@@H]1COC(=O)Nc1ccc(F)cc1 | MIC | 25923 (erythromycin-susceptible) | 0.5 µg/mL
CNC(=O)CC1NC(=O)c2csc(n2)-c2ccc(-c3nc(C(=O)NCCC(=O)OC(C)(C)C)cs3)nc2-c2csc(n2)-c2csc(n2)C(C(O)c2ccccc2)NC(=O)CNC(=O)c2nc(sc2CSSc2ncccn2)C(C(C)C)NC(=O)c2nc1sc2C | MIC | ATCC 33591 (methicillin-resistant) | 0.25 µg/mL
CCCCCCCCCCOC[N+](C)(C)CCCCCCCC | MIC | ATCC 6538 | 2.75 µM
CNC(=O)CC1NC(=O)c2csc(n2)-c2ccc(-c3nc(C(=O)NCCC(=O)OC(C)(C)C)cs3)nc2-c2csc(n2)-c2csc(n2)C(C(O)c2ccccc2)NC(=O)CNC(=O)c2nc(sc2CSSc2ccc(CCC(=O)O)cc2)C(C(C)C)NC(=O)c2nc1sc2C | MIC | ATCC 33591 (methicillin-resistant) | >16 µg/mL
CC(=O)NC[C@H]1CN(c2ccc(OC3CCN(C(C)=O)CC3)nc2)C(=O)O1 | MIC | OC4172 methicillin-susceptible | >128 µg/mL
C=CCOC[C@H]1/C=C(C)/C=C/C(=O)[C@H](C)CC(C=O)[C@H](O[C@@H]2O[C@H](C)[C@@H](O)[C@H](N(C)C)[C@H]2O)[C@@H](C)[C@H](O)CC(=O)O[C@@H]1CC | MIC | 25923 (erythromycin-susceptible) | 0.25 µg/mL
CC[C@H]1OC(=O)[C@H](C)C(=O)[C@H](C)[C@@H](O[C@@H]2O[C@H](C)C[C@H](N(C)C)[C@H]2O)[C@](C)(OC)C[C@@H](C)C(=O)[C@H](C)[C@H]2N(CCCCn3cnc(-c4cccnc4)c3)C(=O)O[C@]12C | MIC | 33591 (erythromycin-resistant) | >64 µg/mL
CC[C@H]1OC(=O)[C@H](C)C(=O)[C@H](C)[C@@H](O[C@@H]2O[C@H](C)C[C@H](N(C)C)[C@H]2O)[C@](C)(OC)C[C@@H](C)C(=O)[C@H](C)[C@H]2N(CCCCn3cnc(-c4cccnc4)c3)C(=O)O[C@]12C | MIC90 | 25 strains | 8 µg/mL
CNc1c(F)cc2c(=O)c(C(=O)O)cn(-c3cc(N)c(F)cc3F)c2c1C | MIC90 | 27 isolates (methicillin-resistant) | 0.015 µg/mL
CCCCCCCCCCCC[N+](C)(C)COCC(C)C | MBC | ATCC 6538 | 14.9 µM
CCNc1c(F)cc2c(=O)c(C(=O)O)cn(-c3cc(N)c(F)cc3F)c2c1C | MIC | W200 (methicillin-resistant) | 0.015 µg/mL
CC[C@H]1OC(=O)C[C@@H](O)[C@H](C)[C@@H](O[C@@H]2O[C@H](C)[C@@H](O)[C@H](N(C)C)[C@H]2O)C(C=O)C[C@@H](C)C(=O)/C=C/C(C)=C/[C@@H]1COC(N)=O | MIC | 25923 (erythromycin-susceptible) | 8 µg/mL

Repeating the first 2 entries:

SMILES | read-out | strain or isolate | result
CC[C@H]1OC(=O)C[C@@H](O)[C@H](C)[C@@H](O[C@@H]2O[C@H](C)[C@@H](O)[C@H](N(C)C)[C@H]2O)C(C=O)C[C@@H](C)C(=O)/C=C/C(C)=C/[C@@H]1COC | MIC | 25923 (erythromycin-susceptible) | 0.5 µg/mL
CCCCCCCCCCCC[N+](C)(C)COCC | MIC | ATCC33592 | 4.87 µM

Neighbouring rows are from separate reports. A number after MIC or MFC names an inhibition level or a share of isolates.